Compound potency records, mixed from different reports. Data source: NIAID ChemDB in PubChem.

Shared fields: tests in culture; species: HIV-1; cell line: HeLa; measure: EC50

a–b is a range or a potency band. ECn: concentration that inhibits the pathogen or its effect by n%. Conditions beyond the fields shown may differ between rows. Blank or dashed fields: not listed here.

SMILES | strain | method | setting | result
CCOC(=O)c1cn([C@H](CO)C(C)C)c2ccc(NCc3ccc(F)cc3)cc2c1=O | NL4-3 | luciferase | pseudotyped | >0.1 µM
COc1cnc(-n2cc(C)nn2)c2[nH]cc(C(=O)C(=O)N3CCC(=C(c4ccccc4)c4cc(C)[nH]n4)CC3)c12 | - | luciferase | - | <1 µM
CC(C)C1CN(C(=O)c2ccccc2)CCN1C(=O)C(=O)c1c[nH]c2cccc(F)c12 | LAI | luciferase / reporter gene | pseudotyped | 0.471 µM
Cc1cc(C)c(Nc2nc(Nc3ccc(C#N)cc3)nc3c(C)csc23)c(C)c1 | Y-188L | luciferase | - | <0.01 µM
C[C@@H]1CN(C(=O)c2ccccc2)CCN1C(=O)C(=O)c1c[nH]c2c(NC(=O)C3OC3C(=O)O)cccc12 | - | luciferase / reporter gene | - | <1 µM
COc1ncc(OC)c2c(C(=O)C(=O)N3CCC(=C(C#CCO)c4ccccc4)CC3)c[nH]c12 | - | luciferase | - | <1 µM
COc1cnc(-c2cnccn2)c2[nH]cc(C(=O)C(=O)N3CCN(C(=O)c4ccccn4)C(C)C3)c12 | - | luciferase | - | <1 µM
COc1ncc(OC)c2c(C(=O)C(=O)N3CCC(=Cc4ccccc4)CC3)c[nH]c12 | - | luciferase | - | >5 µM
COc1cccc2[nH]cc(C(=O)C(=O)N3CCN(C(=O)c4ccccc4)CC3C)c12 | LAI | luciferase / reporter gene | pseudotyped | 0.00157 µM
COc1cnc(Cl)c2[nH]cc(C(=O)C(=O)N3CCC(=C(C(N)=O)c4ccccc4)CC3)c12 | - | luciferase | - | 1–5 µM
CC1CN(C(=O)c2ccccc2)CCN1C(=O)Cc1cccc2ccccc12 | - | luciferase / reporter gene | - | 1–5 µM
CCCC1CN(C(=O)c2ccccc2)CCN1C(=O)C(=O)c1c[nH]c2cccc(F)c12 | LAI | luciferase / reporter gene | pseudotyped | 0.0154 µM
N#CC(=C1CCN(C(=O)C(=O)c2c[nH]c3c(NC(=O)Nc4ccc(C(=O)O)cc4)cccc23)CC1)c1ccccc1 | - | luciferase / reporter gene | - | <1 µM
CCC1CN(C(=O)C(=O)c2c[nH]c3c(-c4cnccn4)ncc(OC)c23)CCN1C(=O)c1ccccn1 | - | luciferase | - | <1 µM
CC(C)[C@@H](CO)n1cc(C(=O)O)c(=O)c2cc(NCc3c(F)cc(F)cc3F)c(N3CCOCC3)nc21 | NL4-3 | luciferase | pseudotyped | <0.01 µM
COc1cnc(-n2ccc(C)n2)c2[nH]cc(C(=O)C(=O)N3CCC(=C(c4ccccc4)c4ccc(F)cc4)CC3)c12 | - | luciferase | - | <1 µM
COc1ccc2nc(C(=O)C(=O)N3CCN(C(=O)c4ccccc4)CC3C)ccc2c1 | - | luciferase / reporter gene | - | <1 µM
Cc1cc(C)c(Nc2nc(Nc3ccc(C#N)cc3)nc3ccsc23)c(C)c1 | L1001-K103N | luciferase | - | >0.1 µM
CC(C)[C@@H](CO)n1cc(C(=O)O)c(=O)c2cc(-c3ccncc3)ncc21 | NL4-3 | luciferase | pseudotyped | >0.1 µM
COc1cnc(-c2ccc(S(N)(=O)=O)cc2)c2[nH]cc(C(=O)C(=O)N3CCC(=C(C#N)c4ccccc4)CC3)c12 | - | luciferase | - | <1 µM
CC1CN(C(=O)c2ccccc2)CCN1C(=O)C(=O)c1c[nH]c2cccc(F)c12 | LAI | luciferase / reporter gene | pseudotyped | 0.00056 µM
CN1c2ccccc2C2C1C=C(C#N)C(=O)N2c1ccc([N+](=O)[O-])cc1 | B-HXB2 | GFP / fluorescence | - | 0.17 µM
CC(C)CC1CN(C(=O)C(=O)c2c[nH]c3cccc(F)c23)CCN1C(=O)c1ccccc1 | LAI | luciferase / reporter gene | pseudotyped | 0.303 µM
C[C@H]1CN(C(=O)c2ccccc2)CCN1C(C#N)C(=O)c1ccc2ccccc2n1 | - | luciferase / reporter gene | - | <1 µM
O=C(C(=O)N1CCC(=C(c2ccccc2)c2cc(F)cc(F)c2)CC1)c1c[nH]c2c(Cl)ccnc12 | - | luciferase | - | <1 µM
C[C@H]1CN(C(=O)c2ccccc2)CCN1C(=O)C(=O)c1ccc2cnccc2n1 | - | luciferase / reporter gene | - | <1 µM
COc1cnc(-n2nccn2)c2[nH]cc(C(=O)C(=O)N3CCN(C(=O)c4ccccc4)CC3)c12 | - | luciferase | - | <1 µM
Cc1cc(C)c(Oc2nc(Nc3ccc(C#N)cc3)nc3sc4c(c23)CCCC4)c(C)c1 | L1001-K103N | luciferase | - | >0.1 µM
CCCn1cc(C(=O)OCc2ccccc2)c(=O)c2c(N)nc(SC)nc21 | NL4-3 | luciferase | pseudotyped | >0.1 µM
C[C@@H]1CN(C(=O)c2ccccc2)CCN1C(=O)C(F)(F)c1ccc2ccccc2c1 | - | luciferase / reporter gene | - | <1 µM
CC(C)[C@@H](CO)n1cc(C(=O)O)c(=O)c2cc(NCc3cccc(Cl)c3F)ncc21 | NL4-3 | luciferase | pseudotyped | >0.1 µM
C[C@@H]1CN(C(=O)c2ccccc2)CCN1C(=O)C(=O)c1c[nH]c2c(NC(=O)Nc3cccc(C(=O)O)c3)cccc12 | - | luciferase / reporter gene | - | <1 µM
C[C@H]1CN(C(=O)c2ccccc2)CCN1C(=O)C(=O)c1cnc2ccccc2n1 | - | luciferase / reporter gene | - | <1 µM
COc1cnc(-n2ccc(COC(=O)CC(C)(C)C(=O)O)n2)c2[nH]cc(C(=O)C(=O)N3CCN(C(=O)c4ccccc4)CC3)c12 | - | luciferase | - | <1 µM
CCC1CN(C(=O)C(=O)c2c[nH]c3cccc(F)c23)CCN1C(=O)c1ccccc1 | LAI | luciferase / reporter gene | pseudotyped | 0.00538 µM
O=C(C(=O)N1CCN(C(=O)c2ccccc2)CC1)c1ccc2ccccc2n1 | - | luciferase / reporter gene | - | <1 µM
Cc1cc(C)c(Oc2nc(Nc3ccc(C#N)cc3)nc3sccc23)c(C)c1 | - | luciferase | - | <0.01 µM
COc1cnc(-n2ccnn2)c2[nH]cc(C(=O)C(=O)N3CCC(=C(c4ccccc4)c4cnn(C)c4)CC3)c12 | - | luciferase | - | <1 µM
Cc1ncn(-c2ncc(F)c3c(C(=O)C(=O)N4CCN(C(=O)c5ccccc5)[C@H](C)C4)c[nH]c23)n1 | - | luciferase | - | ≤0.0002 µM
CC1CC(C)CN(S(=O)(=O)c2ccccc2[N+](=O)[O-])C1 | 83-2/B1-T20r | GFP / fluorescence | - | 0.22 µM
COc1cnc(-n2ccnn2)c2[nH]cc(C(=O)C(=O)N3CCC(=C(c4ccccc4)c4nnco4)CC3)c12 | - | luciferase | - | <1 µM
O=C(C(=O)N1CCN(C(=O)c2ccccc2)CC1)c1cccc2ccccc12 | - | luciferase / reporter gene | - | <1 µM
C[C@@H]1CN(C(=O)c2ccccc2)CCN1C(=O)C(=O)c1c[nH]c2c(NC(=O)CCC(=O)O)cccc12 | - | luciferase / reporter gene | - | <1 µM